The values below come from patent publication US4886663A (priority 1983, dated 1989).

For the assay, the system named is M-ST antigen. Put plainly: rabbit antiserum titer against M-ST after immunization with non-conjugated ST (ELISA). Particulars: same protocol; believed, not tested. Background: In an ELISA, binding on a coated surface is turned into a signal by an enzyme label.

“AsnThrPheTyrCysCysGluLeuCysCysTyrProAlaCysAlaGlyCysAsn”: the “induction of anti-ST antibodies when non-conjugated to a carrier” value was “would induce substantially no anti-ST antibodies”.
